Experimental data: PubChem BioAssay AID624099 (ICCB-Longwood, 2012)
The whole screen tested about 21,000 reagents; below is a random part of them. 497 of all reagents (2.4%) were called active. 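Higher z means weaker E2 silencing; only reporter increases were scored, and knock-downs that hurt cell survival may mask genuine repressor factors.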 A number with no mark means an inactive call.

Test: 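Human genes that papillomavirus E2 requires to repress the HPV18 LCR promoter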 (primary screen)
Cells: human C33A cervical carcinoma cells (HPV-negative) stably expressing BPV1 E2 and an HPV18 LCR luciferase reporter
Knock-down reagent: siRNA pool against human genes, 40 nM
Duration: 72 h
Measured: 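Per-well luciferase luminescence, z-scored on each plate against the plate mean and SD with control wells left out, then averaged across three replicate plates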
Scale: mean z-score and z-score: higher = stronger reporter signal, weaker E2 silencing
Active means: 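Hit if mean z-score reaches 2 and two or more of three replicate z-scores also reach 2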

target gene	mean z-score	z-score, replicate A	z-score, replicate B	z-score, replicate C
MRPL28	-1.04	-1.14	-0.91	-1.05
CD38	0.22	-0.26	0.42	0.51
CD80	0.45	0.37	0.4	0.57
CDY2B	-0.62	-0.5	-0.73	-0.64
MTMR4	-0.91	-0.88	-0.87	-0.99
TEKTL1	-0.9	-1.33	-1.25	-0.1
MMP13	-0.83	-0.73	-1.02	-0.75
RPL39	-0.59	-0.64	-0.64	-0.5
PCBP1-AS1	-2.05	-1.88	-1.94	-2.32
LOC200731 (retired record)	0.03	0.16	-0.42	0.35
KDM3A	-0.8	-1.3	-0.8	-0.3
ZNF384	-0.02	0.08		-0.13
SLC35B1	-0.06	-0.01	-0.07	-0.1
UBQLN3	0.3	0.49	0.03	0.39
CDC42EP1	-0.45	-0.43	-0.63	-0.28
PLCL2	1.86	2.31	1.72	1.54
KBTBD6	-0.69	-1	-0.84	-0.23
PRRG1	1.26	1.13	1.34	1.31
IQCE	0.32	0.43	0.12	0.42
LHX9	0.64	0.86	0.26	0.82
PTPN12	0.78	0.62	0.83	0.9
ANKHD1	-1.72	-0.86	-1.32	-2.98
LOC399933 (retired record)	-0.72	-0.54	-1.24	-0.38
SMTNL2	-0.06	-0.23	0.31	-0.26
SCRT2	1.14	1.1	0.94	1.37
SLC22A10	0.27	0.58	0.04	0.19
SHISAL2A	1.3	1.59	1.06	1.25
TEX12	0.85	1.06	1.18	0.3
ATP5F1A	0.03	0.11	-0.03	0.02
GCNA	0.83	0.79	0.4	1.29
UBE2S	-1.66	-1.71	-1.69	-1.59
DCUN1D1	0.06	-0.32	0.28	0.22
FHOD3	0.36	0.44	0.78	-0.14
SMOC2	0.12	1.55	-0.86	-0.32
LOC285047 (retired record)	-0.32	0.17	-0.55	-0.58
LRRC46	-0.33	-0.31	-0.75	0.06

Continued, starting with the last 3 of the part before.
target gene	mean z-score	z-score, replicate A	z-score, replicate B	z-score, replicate C
SMOC2	0.12	1.55	-0.86	-0.32
LOC285047 (retired record)	-0.32	0.17	-0.55	-0.58
LRRC46	-0.33	-0.31	-0.75	0.06
TASOR	0.77	0.9	0.6	0.8
NOCT	-0.59	-0.67	-0.51	-0.59
RPS15P3	-0.11	0.13	-0.36	-0.11
HAPLN2	-0.28	-0.58	-0.44	0.2
RPS27P4	1.74	1.79	1.8	1.65
ATP5F1D	1.93	1.85	1.71	2.22
AOX1	-1.19	-1.23	-1.15	-1.2
LOC387630 (retired record)	0.14	0.03	0.09	0.31
TNP2	-0.73	-0.64	-0.5	-1.06
TSEN15	-0.44	-0.74	-0.24	-0.34
SPARC	-1.84	-2.11	-2.08	-1.32
TMEM212	-0.39	-0.23	-0.89	-0.06
CELSR3	1.44	1.31	1.64	1.37
MEX3D	-2.14	-1.92	-2.29	-2.22
POLR2E	-1.83	-1.63	-2.04	-1.83
LPCAT3	-0.03	-0.26	0.12	0.06
SCT	2.51 (active)	3.01	2.06	2.46
JDP2	0.13	0.3	-0.21	0.3
SACK1D	0.45	0.44	0.32	0.59
EMILIN2	0.86	0.93	0.74	0.92
CBFA2T3	0.92	0.49	0.87	1.4
PDE11A	-0.58	-0.61	-0.47	-0.66
RPL18	-1.41	-1.36	-1.35	-1.53
MRGBP	-0.59	-1.17	-0.53	-0.07
TRMT10B	1.03	0.84	0.97	1.26
GEN1	1.13	1.21	1.16	1.02
ADSL	0.67	-0.01	0.79	1.23
EPN2	1.31	1.16	1.18	1.58
ALG1	-2.4	-2.34	-2.4	-2.46
LOC401345 (retired record)	0.52	0.5	0.44	0.63
TRUB1	-0.75	-1.4	-0.69	-0.14
MRPS10	-0.06	-0.07	-0.28	0.18
PSMC1	-2.42	-2.51	-2.55	-2.19
LPAR5	-1.28	-1.14	-1.35	-1.35
MBOAT7	0.63	-0.08	0.85	1.13
ALDH1L2	-0.26	-0.31	0.15	-0.63
CUL4B	0	-0.11	0.11	0
